Tested on: Mus musculus
Assay: Hepatotoxicity in ip dosed ddY mouse assessed as increase in liver weight and intra hepatic hemorrhages
Conditions: in vivo, strain ddY

`C/C=C1/C(=O)N[C@@H](C(=O)O)[C@H](C)C(=O)N[C@@H](CCCCNC(=N)N)C(=O)N[C@@H](/C=C/C(C)=C/[C@H](C)[C@H](Cc2ccccc2)OC)[C@H](C)C(=O)N[C@@H](C(=O)O)CCC(=O)N1C` was tested, and the LD50 was 0.07 mg/kg.

From ChEMBL document CHEMBL1150561, “Nodularin-Har: a new nodularin from Nodularia” (2001)
